Measured values from several laboratories, pooled; numbers as filed in NIAID ChemDB.

Shared fields: tests in culture; organism: HIV-2; cell line: MT-4; read-out: EC50

Rows are shuffled and stem from different studies. An empty or dashed field is not shown. ECn is the concentration giving n% inhibition of infection, replication or growth.

compound | strain or isolate | read by | value
Cc1cn([C@H]2C[C@H](N=[N+]=[N-])[C@@H](CO)O2)c(=O)[nH]c1=O | ZY | cytopathic effect | 0.04 µM
Cc1cn([C@H]2C[C@H](N=[N+]=[N-])[C@@H](CO)O2)c(=O)[nH]c1=O | ROD | cytopathic effect / MTT | 0.014 µg/mL
Cc1cc(Br)cc(C)c1Oc1ncc([N+](=O)[O-])c(Nc2ccc(C#N)cc2)n1 | ROD | MTT | ≥202 µM
NC(N)=NCCNc1ccc2[nH]ccc2c1.O=S(O)O | ROD | MTT | >77.68 µM
COc1ccc(CCNc2nc(NC(=O)Nc3ccc(C)cc3)nc(Oc3cc(=O)oc4ccccc34)n2)cc1OC | ROD | MTT | >74.98 µg/mL
Cc1cn([C@H]2C=C[C@@H](CO)O2)c(=O)[nH]c1=O | ROD | MTT | 0.19 µM
CN=C(N)NCCNc1ccc2[nH]ccc2c1 | ROD | MTT | >277 µM
CCCCCCCCCCCCCCCCCCOC1OC(COS(=O)(=O)O)C(OC2OC(COS(=O)(=O)O)C(OC3OC(COS(=O)(=O)O)C(OC4OC(COS(=O)(=O)O)C(OC5OC(COS(=O)(=O)O)C(OC6OC(COS(=O)(=O)O)C(OS(=O)(=O)O)C(OS(=O)(=O)O)C6O)C(OS(=O)(=O)O)C5O)C(O)C4OS(=O)(=O)O)C(O)C3OS(=O)(=O)O)C(OS(=O)(=O)O)C2O)C(OS(=O)(=O)O)C1O | ROD | cytopathic effect / MTT | 1.4 µg/mL
Cc1cc(C#N)cc(C)c1Oc1ncc(N)c(Nc2ccc(C#N)cc2)n1 | ROD | MTT | >35.1 µM
O=C(O)C1=CC(=C(c2ccc(O)c(C(=O)O)c2)c2ccc(O)c(C(=O)O)c2)C=CC1=O |  | cytopathic effect | 23 µM
Cc1cc(Br)cc(C)c1Oc1ncc(N)c(Nc2ccc(C#N)cc2)n1 | ROD | MTT | >31.63 µM
O=C(N/N=C/c1ccccc1Cl)c1csc(N2N=C(c3ccccc3)CC2c2ccc(Cl)cc2)n1 | ROD | MTT / absorbance | >125 µM
O=c1[nH]c(=S)[nH]c2c1C(c1ccc(Cl)cc1)c1c([nH]c(=S)[nH]c1=O)O2 | ROD | cytopathic effect | >137 µM
Cc1cn([C@H]2C[C@H](N=[N+]=[N-])[C@@H](CO)O2)c(=O)[nH]c1=O | LAV-2-ROD | cytopathic effect | 0.018 µg/mL
COP(=O)(O)C[C@H](NP(=O)(O)OC[C@@H]1C=C[C@H](n2cc(C)c(=O)[nH]c2=O)O1)C(=O)O | ROD | MTT | 0.19 µM
O=C(N/N=C/c1ccc(F)cc1)c1csc(N2N=C(c3ccccc3)CC2c2ccc(Cl)cc2)n1 | ROD | MTT / absorbance | >0.5 µM
COc1ccc(CCNc2nc(NC(=O)Nc3cccc(C)c3)nc(Oc3cc(=O)oc4ccccc34)n2)cc1OC | ROD | MTT | >22.45 µg/mL
NC(=NCCCCNc1ccc2[nH]ccc2c1)N[N+](=O)[O-] | ROD | MTT | >431 µM
COc1ccc(CCNc2nc(NC(=S)Nc3ccc(F)cc3)nc(Oc3cc(=O)oc4ccccc34)n2)cc1OC | ROD | MTT | >14.55 µg/mL
Cc1cc(C)c(Oc2ncc(NC(=O)C(F)(F)F)c(Nc3ccc(C#N)cc3)n2)c(C)c1 | ROD | MTT | >243 µM
CC1(C)[C@@H](O[C@H]2O[C@H](C(=O)O)[C@@H](O)[C@H](O)[C@H]2O[C@@H]2O[C@H](C(=O)O)[C@@H](O)[C@H](O)[C@H]2O)CC[C@]2(C)[C@H]3C(=O)C=C4[C@@H]5C[C@@](C)(C(=O)O)CC[C@]5(C)CC[C@@]4(C)[C@]3(C)CC[C@@H]12 | rot | ELISA | <1000 µg/mL
O=C(N/N=C/c1ccc(O)cc1)c1csc(N2N=C(c3ccccc3)CC2c2ccc(Cl)cc2)n1 | ROD | MTT / absorbance | >17.75 µM
CCOCn1c(Sc2ccccc2)c(CC)c(=O)[nH]c1=O | ROD | cytopathic effect / MTT | >146 µM
Nc1nc2c(ncn2COC(CO)CO)c(=O)[nH]1 |  | cytopathic effect / trypan blue | >500 µM
CCOC(=O)c1csc(N2N=C(c3ccccc3)CC2c2ccc(Cl)cc2)n1 | ROD | MTT / absorbance | >11.51 µM
COc1ccc(CCNc2nc(NC(=S)Nc3ccc(Cl)cc3)nc(Oc3cc(=O)oc4ccccc34)n2)cc1OC | ROD | MTT | >40.83 µg/mL
COP(=O)(C[C@H](NP(=O)(O)OC[C@@H]1C=C[C@H](n2cc(C)c(=O)[nH]c2=O)O1)C(=O)O)OC | ROD | MTT | 1.18 µM
NC(=NCCNc1ccc2[nH]ccc2c1)N[N+](=O)[O-] | ROD | MTT | >400 µM
O=c1[nH]c2c(c(=O)[nH]1)C(c1ccc(I)cc1)c1c([nH]c(=O)[nH]c1=O)O2 | ROD | cytopathic effect | >276 µM
C1CNCCNCCCNCCNC1.[Cl-].[O]=[V+2] | ROD | MTT | >360 µM
Nc1nccc2c1ncn2[C@@H]1C[C@H](CO)[C@@H](O)[C@H]1O |  | cytopathic effect / trypan blue | >500 µM
Clc1nc(Cl)c2c(n1)Oc1nc(Cl)nc(Cl)c1C2c1ccccc1 | EHO | cytopathic effect | >17.5 µM
O=c1[nH]c(=O)n([C@H]2C[C@H](O)[C@@H](CO)O2)cc1/C=C/Br |  | cytopathic effect / trypan blue | >500 µM
CC(=O)Nc1cnc(Oc2c(Br)cc(Br)cc2Br)nc1Nc1ccc(C#N)cc1 | ROD | MTT | >119 µM
COc1ccc(/C=N/NC(=O)c2csc(N3N=C(c4ccccc4)CC3c3ccc(Cl)cc3)n2)cc1O | ROD | MTT / absorbance | >61.75 µM
CC(=O)Oc1ccc(/C=C/C(=O)O[C@@H](C(=O)O)[C@@H](OC(=O)/C=C/c2ccc(OC(C)=O)c(OC(C)=O)c2)C(=O)O)cc1OC(C)=O | ROD |  | 25.5 µM
Cc1ccnc2c1NC(=O)c1cccnc1N2C1CC1 | EHO | cytopathic effect | >97.6 µM
NCCNc1ccc2[nH]ccc2c1 | ROD | MTT | >253 µM
COc1ccc(CCNc2nc(NC(=S)Nc3ccccc3Cl)nc(Oc3cc(=O)oc4ccccc34)n2)cc1OC | ROD | MTT | >13.75 µg/mL
CCNC(N)=NCCNc1ccc2[nH]ccc2c1 | ROD | MTT | >47.28 µM
CCOc1ccc(NC(=O)Nc2nc(NCCc3ccc(OC)c(OC)c3)nc(Oc3cc(=O)oc4ccccc34)n2)cc1 | ROD | MTT | >30.15 µg/mL

Again, the opening 4 rows:

compound	strain or isolate	read by	value
Cc1cn([C@H]2C[C@H](N=[N+]=[N-])[C@@H](CO)O2)c(=O)[nH]c1=O	ZY	cytopathic effect	0.04 µM
Cc1cn([C@H]2C[C@H](N=[N+]=[N-])[C@@H](CO)O2)c(=O)[nH]c1=O	ROD	cytopathic effect / MTT	0.014 µg/mL
Cc1cc(Br)cc(C)c1Oc1ncc([N+](=O)[O-])c(Nc2ccc(C#N)cc2)n1	ROD	MTT	≥202 µM
NC(N)=NCCNc1ccc2[nH]ccc2c1.O=S(O)O	ROD	MTT	>77.68 µM